We go through 60 compounds from PubChem BioAssay AID588726 (The Scripps Research Institute Molecular Screening Center, 2011).

Amino acid sequences for entries named in this document (tags omitted).
UniProt P9WQA3, whole entry: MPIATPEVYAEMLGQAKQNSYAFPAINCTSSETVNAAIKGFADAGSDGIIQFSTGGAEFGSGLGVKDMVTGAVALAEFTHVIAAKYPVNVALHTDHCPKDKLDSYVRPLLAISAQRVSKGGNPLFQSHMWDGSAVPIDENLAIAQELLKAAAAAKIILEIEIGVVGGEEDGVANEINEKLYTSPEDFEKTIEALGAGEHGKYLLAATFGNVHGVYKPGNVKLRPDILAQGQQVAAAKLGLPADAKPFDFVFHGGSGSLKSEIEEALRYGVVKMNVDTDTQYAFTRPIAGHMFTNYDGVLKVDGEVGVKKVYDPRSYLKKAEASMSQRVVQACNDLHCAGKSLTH

Molecules are shown by their SMILES. The entries are a selection whose mix differs from that of the whole data set. Activity calls are given as the source filed them. Rule as the data show it: active = inhibition above about 27%; inactive = the rest.

The target of this assay is Fructose-bisphosphate aldolase (Mycobacterium tuberculosis (strain ATCC 25618 / H37Rv)) (UniProt P9WQA3). In words: M. tuberculosis aldolase activity blockers – biochemical, fluorescence, strain H37Rv, primary screen (AID 588726).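 Also: 0% = vehicle and 100% = reference inhibitor.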 Conditions: purified M. tuberculosis FBA, fluorescence read-out; at 1 µM; stronger effect = higher value.
In the case of `COc1ccc(C(=O)NCC2(N3CCCCC3)CCCCC2)cc1`, the inhibition – broadly, the drop in the measured response relative to a control, in per cent – is inactive: 1.47%. For `CCC(c1nnnn1C1CCCC1)N1CCC(n2c(=O)[nH]c3ccccc32)CC1` (stereo not given) the value was inactive: 0.87%; for `CC(C)(C)OC(=O)N1CCC(N(C(=O)c2ccccc2)c2ccc(F)cc2)CC1`, inactive: -0.95%.

Take `COc1ccc(C(=O)NCC2(N3CCCCC3)CCCCC2)c(OC)c1OC`: the inhibition was inactive: 6.58%. The same measure for `O=C(NCC1(N2CCCCC2)CCCCC1)c1ccc(=O)[nH]c1`: inactive: 2.35%; for `CCCCn1nnnc1C(c1cccs1)N1CCC(n2c(=O)[nH]c3ccccc32)CC1` (stereo not given): inactive: 1.07%. Regarding `O=C(NCC1(N2CCCCC2)CCCCC1)c1cccs1`, the inhibition is inactive: 2.61%. For `CCCCn1nnnc1C(CC)N1CCC(n2c(=O)[nH]c3ccccc32)CC1` (stereo not given) the value was inactive: 3.38%; for `CSc1ccccc1C(=O)NCC1(N2CCCCC2)CCCCC1`, inactive: -1.21%. On to `Cc1cccc(NC2(C#N)CCN(Cc3ccccc3)CC2)c1`, for which the inhibition was inactive: -0.02%. For the compound `O=c1[nH]c2ccccc2n1C1CCN(C(c2ccccc2OC(F)(F)F)c2nnnn2C2CCCCC2)CC1` (stereo not given), the inhibition was inactive: 1.41%. The same measure for `O=C(NCC1(N2CCCCC2)CCCCC1)c1ccc(Cl)nc1`: inactive: 0.8%.

For `Cc1cc(C)cc(N(C(=O)c2ccccc2)C2CCN(C(=O)OC(C)(C)C)CC2)c1`, the inhibition is inactive: 1.7%. Regarding `O=C(NCC1(N2CCOCC2)CCCCC1)c1cc2ccccc2o1`, the inhibition was inactive: 0.02%.

As to `O=C(OC1CN2CCC1CC2)C1c2ccccc2Oc2ccccc21` (stereo not given), the inhibition was inactive: 2.01%.

In the case of `O=c1[nH]c2ccccc2n1C1CCN(C(c2cc3ccccc3o2)c2nnnn2C2CCCCC2)CC1` (stereo not given), the inhibition was inactive: 0.34%.

In the case of `O=C(NCC1(N2CCCCC2)CCCCC1)c1ccc(Cl)s1`, the inhibition was inactive: -0.96%. For `N#CC1(Nc2ccccc2)CCN(Cc2ccccc2)CC1` the value was inactive: 1.67%; for `COc1ccc(Cl)cc1C(=O)NCC1(N2CCOCC2)CCCCC1`, inactive: 1.87%; for `CCOC(=O)N1CCC(Nc2ccc(OC)cc2)CC1`, inactive: -0.57%. Take `CCCCn1nnnc1C(c1ccc(OC)cc1)N1CCC(n2c(=O)[nH]c3ccccc32)CC1` (stereo not given): the inhibition was inactive: -1.31%.

On to `CC(C)(C)n1nnnc1C(c1ccccc1)N1CCC(n2c(=O)[nH]c3ccccc32)CC1` (stereo not given), for which the inhibition is inactive: 0.73%.

For the compound `O=C1CCN(Cc2ccccc2)CC1`, the inhibition was inactive: 5.69%. For `CCOc1ccc(C)cc1CN(CCCl)CCCl` the value was inactive: 1.31%; for `O=C(NCC1(N2CCCCC2)CCCCC1)c1ccc(F)cc1`, inactive: -5.14%. The same measure for `CCCCn1nnnc1C(c1cc2ccccc2o1)N1CCC(n2c(=O)[nH]c3ccccc32)CC1` (stereo not given): inactive: -2.75%; for `O=P1(N(CCCl)CCCl)SCCCS1`: inactive: -0.63%; for `CCCCOc1ccc(C(=O)NCC2(N3CCOCC3)CCCCC2)cc1`: inactive: -0.51%.

For the compound `COc1ccc(NC2CCN(CCc3ccccc3)CC2)c(OC)c1`, the inhibition is inactive: 1.63%. The same measure for `CCOC(=O)N1CCC(Nc2ccc(F)cc2)CC1`: inactive: 5.06%; for `O=c1[nH]c2ccccc2n1C1CCN(C(c2ccccc2)c2nnnn2C2CCCCC2)CC1` (stereo not given): inactive: -3.46%; for `COc1cc(C(=O)NCC2(N(C)C)CCCCC2)ccc1OC(F)F`: inactive: 4.23%.

As for `CCOC(=O)N1CCC(Nc2cccc(C)c2)CC1`, the inhibition is inactive: 1.16%.

For `O=c1[nH]c2ccccc2n1C1CCN(C(c2cccc3ccccc23)c2nnnn2C2CCCC2)CC1` (stereo not given), the inhibition is inactive: -1.96%. The same measure for `CC(C)(C)n1nnnc1C(c1ccccc1OC(F)(F)F)N1CCC(n2c(=O)[nH]c3ccccc32)CC1` (stereo not given): inactive: -0.78%. As for `O=C(NCC1(N2CCCCC2)CCCCC1)c1ccc(OC(F)F)cc1`, the inhibition is inactive: -0.66%.

In the case of `CCN1CCC(Nc2ccc(Cl)cc2)CC1`, the inhibition was inactive: 1.18%. Regarding `N#CC1(Nc2ccccc2)CCN(CCc2ccccc2)CC1`, the inhibition is inactive: 1.6%. Consider `O=c1[nH]c2ccccc2n1C1CCN(C(c2ccccc2OC(F)(F)F)c2nnnn2C2CCCC2)CC1` (stereo not given), for which the inhibition is inactive: -1.49%. For `O=C(NCC1(N2CCCCC2)CCCCC1)c1cccc([N+](=O)[O-])c1` the value was inactive: 1.97%. For `CSc1ccc(C(=O)NCC2(N3CCOCC3)CCCCC2)cc1`, the inhibition is inactive: 17.1%. For `O=C(NCC1(N2CCCCC2)CCCCC1)c1cccc(C(F)(F)F)c1` the value was inactive: -8.43%; for `COc1cc(C(=O)NCC2(N3CCCCC3)CCCCC2)ccc1OC(F)F`, inactive: 2.31%. For `O=C(NCC1(N2CCOCC2)CCCCC1)c1cc(=O)[nH]c2ccccc12` the value was inactive: 8.36%; for `CCCCn1nnnc1C(c1cccc2ccccc12)N1CCC(n2c(=O)[nH]c3ccccc32)CC1` (stereo not given), inactive: -4.06%; for `CN1CCN(CCOC(=O)C(O)(c2ccccc2)c2ccccc2)CC1`, inactive: 2%. The same measure for `CC(C)c1ccc(C(=O)NCC2(N3CCOCC3)CCCCC2)cc1`: inactive: 0.86%; for `COc1ccc(NC2CCN(C(=O)OC(C)(C)C)CC2)cc1`: inactive: 1.13%; for `CCCCn1nnnc1C(c1ccccc1OC(F)(F)F)N1CCC(n2c(=O)[nH]c3ccccc32)CC1` (stereo not given): inactive: 0.28%. For `CC(C)c1ccc(NC2CCN(C(=O)OC(C)(C)C)CC2)cc1`, the inhibition is inactive: -0.57%. For `COc1ccc(CN(CCCl)CCCl)cc1Cl` the value was inactive: -0.3%; for `CN(C)c1cccc(C(=O)NCC2(N3CCCCC3)CCCCC2)c1`, inactive: 8.23%; for `COc1cc(OC)c(C(=O)NCC2(N(C)C)CCCCC2)cc1OC`, inactive: 7.44%. The same measure for `CCC(c1nnnn1C(C)(C)C)N1CCC(n2c(=O)[nH]c3ccccc32)CC1` (stereo not given): inactive: 1.91%.

Turning to `O=C(NCC1(N2CCOCC2)CCCCC1)c1cc(F)c(F)cc1Cl`, the inhibition is inactive: 2.06%. Consider `CCCCn1nnnc1C(c1ccnc2ccccc12)N1CCC(n2c(=O)[nH]c3ccccc32)CC1` (stereo not given), for which the inhibition is inactive: -0.08%. As for `O=C(NCC1(N2CCCCC2)CCCCC1)c1cncc(Br)c1`, the inhibition was inactive: -1.15%. For `CN1CCC(Nc2cccc(F)c2)CC1`, the inhibition is inactive: 5.52%. The same measure for `COc1ccc(C(c2nnnn2C2CCCC2)N2CCC(n3c(=O)[nH]c4ccccc43)CC2)cc1` (stereo not given): inactive: 5.37%. `Cc1ccc(C(=O)NCC2(N(C)C)CCCCC2)o1`: the inhibition is inactive: 5.03%.
